# Article PMC9241695, “Selective Metal Chelation by a Thiosemicarbazone Derivative Interferes with Mitochondrial Respiration and Ribosome Biogenesis in Candida albicans” (Microbiology Spectrum, 2022)
# System: C. albicans SC5314
# Experiment: RNA-seq transcriptional analysis
# Format: cell-based, Candida albicans
# Conditions: for Downregulated genes / Upregulated genes / Differentially expressed genes: 6 h; for Differentially expressed genes: |log2FoldChange| > 1, P-value < 0.05
# Procedure: C. albicans SC5314 cells were inoculated into RPMI 1640 medium at a concentration of 1 × 10^7 cells/mL and incubated at 30°C for 6 h. The cells were then harvested, and RNA extraction was performed with the Yeast RNA Kit (OMEGA, Guangzhou, China). RNA purity was evaluated using a Nanodrop-2000, and RNA integrity was assessed using the RNA Nano 6000 detection kit. RNA-Seq libraries are prepared using NEB Next Ultra RNA Library Prep Kit (NEB, MA, USA) for Illumina. The cDNA library quality was quantified first by using Qubit 2.0 Fluorometer, detected on Agilent 2100 bioanalyzer. Clustering was performed in the cBot cluster generation system. After cluster generation, the library preparations were sequenced on the Illumina Novaseq platform. Library construction and sequencing were performed by Novogene (Beijing, China). Each sample was analyzed in triplicate.
# The raw data in fastq format were first processed by an internal perl script. In this step, clean data were obtained by applying various processing methods. All subsequent downstream analyses were based on high-quality clean data. The clean reads were individually mapped to the C. albicans SC5314 reference genome using HISAT2 (v2.0.5). The fragments per kilobase of transcript per million mapped reads (FPKM) value was calculated for each gene, and the read counts were mapped to the genes. The DESeq2R package (1.20.0) was used to analyze differences in expression between two groups with biological replication. Genes with an adjusted P value < 0.05 and |log2FoldChange| > 1 as detected by DESeq2 were considered DEGs. The RNA sequencing data have been submitted to the Gene Expression Omnibus (GEO) under accession number GSE179537.
structure (smiles),measurement,setting,value
C/C(=N\NC(=S)N(C)C)c1ccccn1 [Compound 19ak],Downregulated genes,0.5 μg/mL,"1,285 genes"
same,Upregulated genes,0.5 μg/mL,"1,347 genes"
same,Differentially expressed genes,0.5 μg/mL,"2,632 genes"
same,Downregulated genes,2 μg/mL,"1,635 genes"
same,Upregulated genes,2 μg/mL,"1,700 genes"
same,Differentially expressed genes,2 μg/mL,"3,335 genes"
same,Genes of mitochondrial respiratory chain complexes downregulated,after 19ak exposure,48 genes
